Data reported in article PMC11946510, “Binding of small molecules at the P-stalk site of ricin A subunit trigger conformational changes that extend into the active site” (2025).

Columns and labels:
[1] = molecular target: ricin holotoxin (Ricinus communis, UniProt P02879); assay: Protection against cytotoxicity of ricin holotoxin in Vero cells, CellTiter-Glo viability assay; settings: 48 h
[2] = molecular target: RTA (Ricinus communis, UniProt P02879); assay: Fluorescence anisotropy (FA) competitive binding assay: displacement of fluorescent P11 peptide from RTA; settings: binding energy divided by the number of nonhydrogen atoms

CCc1cccc(C)c1-c1ccc(C(=O)O)s1
Fold increase in ricin viability EC50 relative to ricin alone ([1]; 125 μM compound): 5 fold | Fold increase in ricin viability EC50 relative to ricin alone ([1]; 500 μM compound): > 500 fold | LE (ligand efficiency) [2]: 0.46
